Target: T1, SARS-CoV-2 WT-RBD protein (SARS-CoV-2 wild type, UniProt P0DTC2)
T1 construct: source: bought: Sino Biological
Assay: ELISA
Conditions: both partners purified

B1: ConD-852 (IgG form) (antibody, V domains shown)
VH: QVQLVESGGGVVQPGRSLRLSCAASGFTFSSYGMHWVRQAPGKGLEWVALIWFDGSNKYYADSVKGRFTISRDNSKNTLYLQMNSLRAEDTAVYYCARDGLDLEWLFGLFDYWGQGTLVTVSS
VL: not shown
  binding result: no binding
